{"source": "paper PMC8166163", "target": "HIV-1 NL4.3 envelope glycoprotein with truncated cytoplasmic tail (ΔCT Env) (HIV-1 NL4.3)", "data": [{"substance": "soluble CD4 (from UniProt P01730 26-396) (receptor)", "values": [{"measurement": "neutralisation of HIV-1 NL4.3 ΔCT virus by sCD4, IC50", "value": "> 50", "unit": "µg/mL"}]}]}
